From patent publication US20140287419A1, “Compositions Having Dicamba Decarboxylase Activity and Methods of Use” (priority 2013, published 2014)

B1: G27S: point mutation G27S of SEQ ID NO:109 (protein)
chain: MAQGKVALEEHFAIPETLQDSAGFVPSDYWKELQHRLLDIQDTRLKLMDAHGIETMILSLNAPAVQAIPDRRKAIEIARRANDVLAEECAKRPDRFLAFAALPLQDPDAATEELQRCVNDLGFVGALVNGFSQEGDGQTPLYYDLPQYRPFWGEVEKLDVPFYLHPRNPLPQDSRIYDGHPWLLGPTWAFAQETAVHALRLMASGLFDEHPRLNIILGHMGEGLPYMMWRIDHRVAWVKLPPRYPAKRRFMDYFNENFHITTSGNFRTQTLIDAILEIGADRILFSTDWPFENIDHASDWFNATSIAEADRVKIGRTNARRLFKLDGA
modifications: Dicamba decarboxylase variant clone DC.4.032
B2: V235I: point mutation V235I of SEQ ID NO:109 (protein)
chain: MAQGKVALEEHFAIPETLQDSAGFVPGDYWKELQHRLLDIQDTRLKLMDAHGIETMILSLNAPAVQAIPDRRKAIEIARRANDVLAEECAKRPDRFLAFAALPLQDPDAATEELQRCVNDLGFVGALVNGFSQEGDGQTPLYYDLPQYRPFWGEVEKLDVPFYLHPRNPLPQDSRIYDGHPWLLGPTWAFAQETAVHALRLMASGLFDEHPRLNIILGHMGEGLPYMMWRIDHRIAWVKLPPRYPAKRRFMDYFNENFHITTSGNFRTQTLIDAILEIGADRILFSTDWPFENIDHASDWFNATSIAEADRVKIGRTNARRLFKLDGA
modifications: Dicamba decarboxylase variant clone DC.4.032
B3: N302A: point mutation N302A of SEQ ID NO:109 (protein)
chain: MAQGKVALEEHFAIPETLQDSAGFVPGDYWKELQHRLLDIQDTRLKLMDAHGIETMILSLNAPAVQAIPDRRKAIEIARRANDVLAEECAKRPDRFLAFAALPLQDPDAATEELQRCVNDLGFVGALVNGFSQEGDGQTPLYYDLPQYRPFWGEVEKLDVPFYLHPRNPLPQDSRIYDGHPWLLGPTWAFAQETAVHALRLMASGLFDEHPRLNIILGHMGEGLPYMMWRIDHRVAWVKLPPRYPAKRRFMDYFNENFHITTSGNFRTQTLIDAILEIGADRILFSTDWPFENIDHASDWFAATSIAEADRVKIGRTNARRLFKLDGA
modifications: Dicamba decarboxylase variant clone DC.4.032
B4: A64G: point mutation A64G of SEQ ID NO:109 (protein)
chain: MAQGKVALEEHFAIPETLQDSAGFVPGDYWKELQHRLLDIQDTRLKLMDAHGIETMILSLNAPGVQAIPDRRKAIEIARRANDVLAEECAKRPDRFLAFAALPLQDPDAATEELQRCVNDLGFVGALVNGFSQEGDGQTPLYYDLPQYRPFWGEVEKLDVPFYLHPRNPLPQDSRIYDGHPWLLGPTWAFAQETAVHALRLMASGLFDEHPRLNIILGHMGEGLPYMMWRIDHRVAWVKLPPRYPAKRRFMDYFNENFHITTSGNFRTQTLIDAILEIGADRILFSTDWPFENIDHASDWFNATSIAEADRVKIGRTNARRLFKLDGA
modifications: Dicamba decarboxylase variant clone DC.4.032
B5: N214Q: point mutation N214Q of SEQ ID NO:109 (protein)
chain: MAQGKVALEEHFAIPETLQDSAGFVPGDYWKELQHRLLDIQDTRLKLMDAHGIETMILSLNAPAVQAIPDRRKAIEIARRANDVLAEECAKRPDRFLAFAALPLQDPDAATEELQRCVNDLGFVGALVNGFSQEGDGQTPLYYDLPQYRPFWGEVEKLDVPFYLHPRNPLPQDSRIYDGHPWLLGPTWAFAQETAVHALRLMASGLFDEHPRLQIILGHMGEGLPYMMWRIDHRVAWVKLPPRYPAKRRFMDYFNENFHITTSGNFRTQTLIDAILEIGADRILFSTDWPFENIDHASDWFNATSIAEADRVKIGRTNARRLFKLDGA
modifications: Dicamba decarboxylase variant clone DC.4.032
B6: N61A: point mutation N61A of SEQ ID NO:109 (protein)
chain: MAQGKVALEEHFAIPETLQDSAGFVPGDYWKELQHRLLDIQDTRLKLMDAHGIETMILSLAAPAVQAIPDRRKAIEIARRANDVLAEECAKRPDRFLAFAALPLQDPDAATEELQRCVNDLGFVGALVNGFSQEGDGQTPLYYDLPQYRPFWGEVEKLDVPFYLHPRNPLPQDSRIYDGHPWLLGPTWAFAQETAVHALRLMASGLFDEHPRLNIILGHMGEGLPYMMWRIDHRVAWVKLPPRYPAKRRFMDYFNENFHITTSGNFRTQTLIDAILEIGADRILFSTDWPFENIDHASDWFNATSIAEADRVKIGRTNARRLFKLDGA
modifications: Dicamba decarboxylase variant clone DC.4.032
B7: S298A: point mutation S298A of SEQ ID NO:109 (protein)
chain: MAQGKVALEEHFAIPETLQDSAGFVPGDYWKELQHRLLDIQDTRLKLMDAHGIETMILSLNAPAVQAIPDRRKAIEIARRANDVLAEECAKRPDRFLAFAALPLQDPDAATEELQRCVNDLGFVGALVNGFSQEGDGQTPLYYDLPQYRPFWGEVEKLDVPFYLHPRNPLPQDSRIYDGHPWLLGPTWAFAQETAVHALRLMASGLFDEHPRLNIILGHMGEGLPYMMWRIDHRVAWVKLPPRYPAKRRFMDYFNENFHITTSGNFRTQTLIDAILEIGADRILFSTDWPFENIDHAADWFNATSIAEADRVKIGRTNARRLFKLDGA
modifications: Dicamba decarboxylase variant clone DC.4.032
B8: L38I: point mutation L38I of SEQ ID NO:109 (protein)
chain: MAQGKVALEEHFAIPETLQDSAGFVPGDYWKELQHRLIDIQDTRLKLMDAHGIETMILSLNAPAVQAIPDRRKAIEIARRANDVLAEECAKRPDRFLAFAALPLQDPDAATEELQRCVNDLGFVGALVNGFSQEGDGQTPLYYDLPQYRPFWGEVEKLDVPFYLHPRNPLPQDSRIYDGHPWLLGPTWAFAQETAVHALRLMASGLFDEHPRLNIILGHMGEGLPYMMWRIDHRVAWVKLPPRYPAKRRFMDYFNENFHITTSGNFRTQTLIDAILEIGADRILFSTDWPFENIDHASDWFNATSIAEADRVKIGRTNARRLFKLDGA
modifications: Dicamba decarboxylase variant clone DC.4.032
B9: L240E: point mutation L240E of SEQ ID NO:109 (protein)
chain: MAQGKVALEEHFAIPETLQDSAGFVPGDYWKELQHRLLDIQDTRLKLMDAHGIETMILSLNAPAVQAIPDRRKAIEIARRANDVLAEECAKRPDRFLAFAALPLQDPDAATEELQRCVNDLGFVGALVNGFSQEGDGQTPLYYDLPQYRPFWGEVEKLDVPFYLHPRNPLPQDSRIYDGHPWLLGPTWAFAQETAVHALRLMASGLFDEHPRLNIILGHMGEGLPYMMWRIDHRVAWVKEPPRYPAKRRFMDYFNENFHITTSGNFRTQTLIDAILEIGADRILFSTDWPFENIDHASDWFNATSIAEADRVKIGRTNARRLFKLDGA
modifications: Dicamba decarboxylase variant clone DC.4.032
B10: D42M: point mutation D42M of SEQ ID NO:109 (protein)
chain: MAQGKVALEEHFAIPETLQDSAGFVPGDYWKELQHRLLDIQMTRLKLMDAHGIETMILSLNAPAVQAIPDRRKAIEIARRANDVLAEECAKRPDRFLAFAALPLQDPDAATEELQRCVNDLGFVGALVNGFSQEGDGQTPLYYDLPQYRPFWGEVEKLDVPFYLHPRNPLPQDSRIYDGHPWLLGPTWAFAQETAVHALRLMASGLFDEHPRLNIILGHMGEGLPYMMWRIDHRVAWVKLPPRYPAKRRFMDYFNENFHITTSGNFRTQTLIDAILEIGADRILFSTDWPFENIDHASDWFNATSIAEADRVKIGRTNARRLFKLDGA
modifications: Dicamba decarboxylase variant clone DC.4.032
B11: G52E: point mutation G52E of SEQ ID NO:109 (protein)
chain: MAQGKVALEEHFAIPETLQDSAGFVPGDYWKELQHRLLDIQDTRLKLMDAHEIETMILSLNAPAVQAIPDRRKAIEIARRANDVLAEECAKRPDRFLAFAALPLQDPDAATEELQRCVNDLGFVGALVNGFSQEGDGQTPLYYDLPQYRPFWGEVEKLDVPFYLHPRNPLPQDSRIYDGHPWLLGPTWAFAQETAVHALRLMASGLFDEHPRLNIILGHMGEGLPYMMWRIDHRVAWVKLPPRYPAKRRFMDYFNENFHITTSGNFRTQTLIDAILEIGADRILFSTDWPFENIDHASDWFNATSIAEADRVKIGRTNARRLFKLDGA
modifications: Dicamba decarboxylase variant clone DC.4.032
B12: G327Q: point mutation G327Q of SEQ ID NO:109 (protein)
chain: MAQGKVALEEHFAIPETLQDSAGFVPGDYWKELQHRLLDIQDTRLKLMDAHGIETMILSLNAPAVQAIPDRRKAIEIARRANDVLAEECAKRPDRFLAFAALPLQDPDAATEELQRCVNDLGFVGALVNGFSQEGDGQTPLYYDLPQYRPFWGEVEKLDVPFYLHPRNPLPQDSRIYDGHPWLLGPTWAFAQETAVHALRLMASGLFDEHPRLNIILGHMGEGLPYMMWRIDHRVAWVKLPPRYPAKRRFMDYFNENFHITTSGNFRTQTLIDAILEIGADRILFSTDWPFENIDHASDWFNATSIAEADRVKIGRTNARRLFKLDQA
modifications: Dicamba decarboxylase variant clone DC.4.032
B13: N61S: point mutation N61S of SEQ ID NO:109 (protein)
chain: MAQGKVALEEHFAIPETLQDSAGFVPGDYWKELQHRLLDIQDTRLKLMDAHGIETMILSLSAPAVQAIPDRRKAIEIARRANDVLAEECAKRPDRFLAFAALPLQDPDAATEELQRCVNDLGFVGALVNGFSQEGDGQTPLYYDLPQYRPFWGEVEKLDVPFYLHPRNPLPQDSRIYDGHPWLLGPTWAFAQETAVHALRLMASGLFDEHPRLNIILGHMGEGLPYMMWRIDHRVAWVKLPPRYPAKRRFMDYFNENFHITTSGNFRTQTLIDAILEIGADRILFSTDWPFENIDHASDWFNATSIAEADRVKIGRTNARRLFKLDGA
modifications: Dicamba decarboxylase variant clone DC.4.032

Assay: Saturation mutagenesis of SEQ ID NO:109, dicamba decarboxylation activity of point mutants
Conditions: rank of the point mutant among saturation mutagenesis variants of SEQ ID NO:109

| Molecule | Variant Ranking by Activity |
| --- | --- |
| B1 | 19 |
| B2 | 44 |
| B3 | 33 |
| B4 | 6 |
| B5 | 41 |
| B6 | 3 |
| B7 | 21 |
| B8 | 30 |
| B9 | 22 |
| B10 | 10 |
| B11 | 1 |
| B12 | 4 |
| B13 | 7 |
